Compound potency records, mixed from different reports. Data source: NIAID ChemDB in PubChem.

Common to all: enzyme or target tests; species: HIV-1; target: Protease; endpoint: IC50

ICn: concentration for n% inhibition.

CC(C)(C)OC(=O)NN(Cc1ccc(Cl)cc1)C[C@H](O)[C@H](Cc1ccccc1)NC(=O)OCc1ccccc1 ; read by: substrate cleavage ; result: 0.016 µM
CC(C)(C)NC(=O)[C@@H]1CSCN1C(=O)[C@@H](O)[C@H](Cc1ccccc1)NC(=O)[C@H](CS(C)(=O)=O)NC(=O)CNc1cccc2ccccc12 ; result: <0.05 µM
NC(=O)C[C@H](NC(=O)c1ccc2ccccc2n1)C(=O)N[C@@H](Cc1ccccc1)[C@H](O)CN1CC[C@H]2CCCC[C@H]2[C@H]1C(F)(F)F ; result: 0.3 µM
O=c1c(O[C@@H]2O[C@H](CO)[C@H](O)[C@H](O)[C@H]2O)c(-c2ccc(O)c(O)c2)oc2cc(O)cc(O)c12 ; read by: HPLC ; result: >100 µM
CC(C)[C@H](NC(=O)[C@H](Cc1cccc2ccccc12)CS(=O)(=O)C(C)(C)C)C(=O)N[C@@H](Cc1ccccc1)[C@@H](O)CN1CC[C@H]2CCCC[C@H]2[C@H]1C(F)(F)F ; result: 0.05 µM
CC(C)CN(C[C@@H](O)[C@H](Cc1ccc(-c2ccc(N3CCOCC3)cc2)cc1)NC(=O)O[C@H]1CCOC1)S(=O)(=O)c1ccc(N)cc1 ; result: 0.0046 µM
CC(C)(C)OC(=O)NN(Cc1cnco1)C[C@H](O)[C@H](Cc1ccccc1)NC(=O)OCc1ccccc1 ; read by: substrate cleavage ; result: 0.016 µM
COc1cc(CN2CCN(C[C@@H](O)[C@H](Cc3ccccc3)NC(=O)O[C@@H]3CCS(=O)(=O)[C@@H]3C(C)C)[C@H](C(=O)NC(C)(C)C)C2)cc2c1OCO2 ; read by: HPLC ; result: 0.0012 µM
Cc1ccc(S(=O)(=O)NC(N)=NCCC[C@@H](NC(=O)OCC2c3ccccc3-c3ccccc32)C(=O)O)cc1 ; read by: HPLC ; result: >100 µM
CC(C)(C)NC(=O)[C@@H]1C[C@H](C2CCCCC2)CN1C(=O)[C@@H](O)[C@H](Cc1ccccc1)NC(=O)[C@H](CC(N)=O)NC(=O)OCc1ccccc1 ; result: >0.05 µM
CC(C)(C)OC(=O)NN(Cc1cnoc1)C[C@H](O)[C@H](Cc1ccccc1)NC(=O)OCc1ccccc1 ; read by: substrate cleavage ; result: 0.011 µM
COC(=O)[C@H](CCCN=C(N)NS(=O)(=O)c1ccc(C)cc1)NC(=O)OCC1c2ccccc2-c2ccccc21 ; read by: HPLC ; result: 8 µM
CC(C)CN(C[C@@H](O)[C@H](Cc1ccc(-c2cccc(C#N)c2)cc1)NC(=O)O[C@H]1CCOC1)S(=O)(=O)c1ccc(N)cc1 ; result: 0.00249 µM
NC(=O)C[C@H](NC(=O)COc1cccc2ccccc12)C(=O)N[C@@H](Cc1ccccc1)[C@H](O)C(=O)N1CSC[C@H]1C(=O)N1CCCCC1 ; result: <5 µM
CC(C)(C)C(=O)OC[C@@H]1[C@@H](O)[C@H](OC(=O)C(C)(C)C)[C@H](O)C[NH+]1Cc1ccccc1 ; result: >100 µM
NC(=O)NCCC[C@H](NC(=O)OCC1c2ccccc2-c2ccccc21)C(=O)O ; read by: HPLC ; result: 30 µM
CC(CO)(CO)NC(=O)[C@@H]1CCCN1C(=O)[C@@H](O)[C@H](Cc1ccccc1)NC(=O)[C@H](CS(C)(=O)=O)NC(=O)COc1cccc2ccccc12 ; result: >0.05 µM
C[C@@H]1CC[C@]2(C(=O)O[C@@H]3O[C@H](CO)[C@@H](O)[C@H](O)[C@H]3O)CC[C@]3(C)C(=CC[C@@H]4[C@@]5(C)C[C@@H](O)[C@H](O)C(C)(C)[C@@H]5CC[C@]43C)[C@@H]2[C@]1(C)O ; read by: HPLC ; result: 100 µM
COc1ccc(S(=O)(=O)N(CC(C)C)C[C@@H](O)[C@H](Cc2ccc(-c3cccc(F)c3)cc2)NC(=O)O[C@H]2CCOC2)cc1 ; result: 0.0065 µM
CC(C)[C@H](NC(=O)[C@H](Cc1cccc2ccccc12)CS(=O)(=O)C(C)(C)C)C(=O)N[C@@H](Cc1ccccc1)[C@@H](O)CN1C[C@@H]2CCCC[C@@H]2C[C@H]1C(F)(F)F ; result: >5 µM
NC(=NCCC[C@H](NC(=O)OCC1c2ccccc2-c2ccccc21)C(=O)O)NS(=O)(=O)c1ccccc1 ; read by: HPLC ; result: 25 µM
COc1ccc(S(=O)(=O)N(CC(C)C)C[C@@H](O)[C@H](Cc2ccc(-c3ccccc3F)cc2)NC(=O)O[C@H]2CCOC2)cc1 ; result: 0.0044 µM
N[C@@H](Cc1ccccc1)C(=O)NC(Sc1ccccc1)C(=O)O ; read by: HPLC ; result: >50 µM
CC(C)[C@H](NC(=O)[C@H](Cc1cccc2ccccc12)CS(=O)(=O)C(C)(C)C)C(=O)N[C@@H](Cc1ccccc1)[C@@H](O)CN1CCc2ccccc2[C@H]1C(F)(F)F ; result: 0.01 µM
CC(C)(C)NC(=O)[C@@H]1CCCN1C(=O)[C@@H](O)[C@H](Cc1ccccc1)NC(=O)[C@H](CC(=O)NN)NC(=O)OCc1cccc2ccccc12 ; result: <0.05 µM
CC1=CC[C@H]([C@@H](C)C2CC[C@@]3(C)C4=C(C=C5C=CC(=O)OC(C)(C)[C@@H]5CC4)CC[C@]23C)OC1=O ; read by: substrate cleavage ; result: 8 µg/mL
COC(=O)c1cccc(-c2ccc(C[C@H](NC(=O)O[C@H]3CCOC3)[C@H](O)CN(CC(C)C)S(=O)(=O)c3ccc(OC)cc3)cc2)c1 ; result: 0.0081 µM
CCOC(=O)[C@H](CCCN=C(N)NS(=O)(=O)c1ccc(C)cc1)NC(=O)OCC1c2ccccc2-c2ccccc21 ; read by: HPLC ; result: 12 µM
CO[C@H]1[C@H](OCc2ccccc2)[C@@H](O)[C@H](Oc2ccccc2)O[C@@H]1CNC(=O)C(NC(C)=O)C(C)C ; result: >100 µM
CC(C)NC(=O)[C@@H]1CCCN1C(=O)[C@@H](O)[C@H](Cc1ccccc1)NC(=O)[C@H](CC(N)=O)NC(=O)OCc1ccccc1 ; result: <5 µM
COc1ccccc1CN(C[C@H](O)[C@H](Cc1ccccc1)NC(=O)OCc1ccccc1)NC(=O)OC(C)(C)C ; read by: substrate cleavage ; result: 0.013 µM
NC(N)=NCCC[C@H](NC(=O)OCC1c2ccccc2-c2ccccc21)C(=O)O ; read by: HPLC ; result: 580 µM
CC(C)(C)OC(=O)NN(CC1CCCCC1)C[C@H](O)[C@H](Cc1ccccc1)NC(=O)OCc1ccccc1 ; read by: substrate cleavage ; result: 0.038 µM
CC(C)N(CC(=O)N(CC(=O)NC[C@@]1(O)C2C3C4C2[C@@](O)(CNC(=O)CN(Cc2ccccc2)C(=O)CN(C(=O)CN(C)C(=O)CSc2ncccn2)C(C)C)C2C1[C@H]3C[C@H]42)Cc1ccccc1)C(=O)CN(C)C(=O)CSc1ncccn1 ; read by: substrate cleavage ; result: 1 µM
CC(C)[C@H](NC(=O)[C@H](Cc1cccc2ccccc12)CS(=O)(=O)C(C)(C)C)C(=O)N[C@@H](Cc1ccccc1)[C@@H](O)C(O)CN1CCCC[C@H]1C(F)(F)F ; result: 0.1 µM

Conditions beyond the fields shown may differ between rows.